Experimental data published in patent publication US7494988B2, “Inhibitors of serine proteases, particularly hepatitis C virus NS3 protease” (Vertex Pharmaceuticals Incorporated, priority 2000, dated 2009).

By UniProt entry, the sequences of proteins in these tests, tags left out. Residues count along the entry.
UniProt P27958, 1027-1657 limits assumed: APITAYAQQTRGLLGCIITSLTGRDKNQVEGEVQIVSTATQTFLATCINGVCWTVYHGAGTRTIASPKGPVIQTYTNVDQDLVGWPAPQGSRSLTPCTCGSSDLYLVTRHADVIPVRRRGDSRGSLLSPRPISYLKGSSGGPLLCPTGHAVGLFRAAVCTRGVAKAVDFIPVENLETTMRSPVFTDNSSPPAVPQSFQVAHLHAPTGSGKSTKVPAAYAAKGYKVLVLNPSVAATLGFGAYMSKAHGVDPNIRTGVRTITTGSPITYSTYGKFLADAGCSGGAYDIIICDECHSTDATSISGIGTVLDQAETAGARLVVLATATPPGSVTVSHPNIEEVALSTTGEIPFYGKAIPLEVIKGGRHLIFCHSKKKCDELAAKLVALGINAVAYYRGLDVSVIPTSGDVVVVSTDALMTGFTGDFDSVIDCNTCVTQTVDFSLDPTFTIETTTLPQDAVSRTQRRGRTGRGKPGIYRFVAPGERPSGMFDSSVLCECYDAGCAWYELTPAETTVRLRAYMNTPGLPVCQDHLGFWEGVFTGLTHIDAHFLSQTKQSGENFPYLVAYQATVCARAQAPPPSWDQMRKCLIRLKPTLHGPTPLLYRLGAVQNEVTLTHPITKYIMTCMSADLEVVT

Target: HCV NS3 serine protease (Hepatitis C virus genotype 1a, UniProt P27958)
Assay: Inhibition of HCV NS3 serine protease, spectrophotometric assay (5A-pNA cleavage)
Details: EDVVAbuC-p-nitroanilide (5A-pNA) substrate, 30° C., pNA release at 405 nm
Procedure: Insofar as compounds of formula (I) are able to inhibit NS3 serine protease, they are of evident clinical utility for the treatment of viral diseases, including HCV. The compounds of this invention are tested for their ability to inhibit HCV in the following spectrophotometric assay.
The spectrophotometric assays were run in a 96-well microtiter plate at 30° C., using a SpectraMax 250 reader (Molecular Devices, Sunnyvale, Calif.) with kinetic capability. Cleavage of EDVVAbuC-p-nitroanilide (5A-pNA) substrate was performed with or without NS4A in the same buffer used for HPLC assays at 30° C., and pNA release was monitored at 405 nm. […]
Kinetic constants for the rapid equilibrium ordered bisubstrate reaction were determined from rate vs. [4A], [EDVV AbuC-pNA] data by non-linear least squares fitting to equation 1 [J. F. Morrison, Biochim. […] Kii and Kis values for peptidyl inhibitors were determined from rate vs. [inhibitor], [substrate] data and fitting to the equation for mixed inhibition: rate=Vmax[S]/{Km(1+[I]/Kis)+[S](1+[I]/Kii)} The commercial program KinetAsyst (StateCollege, Pa.) was used for both procedures. Ki values were calculated from rate vs. [inhibitor] plots by a nonlinear least squares fit of the data to the equation of Morrison for tight binding competitive inhibition [J. F. Morrison, Biochim. […]

With `CCC[C@H](NC(=O)C1C[C@@H](OC(=O)N2CCc3ccccc3C2)CN1C(=O)[C@@H](NC(=O)[C@@H](NC(=O)c1cnccn1)C(C)C)C(C)C)C(=O)C(=O)N1CC1C(=O)OC` (stereo partly shown) the Ki was < 1 µM.
